# Source: ChEMBL document CHEMBL3244068 (J Med Chem, 1978)
# What was measured:
# [1] = system: P388; assay: Antitumor activity against mouse P388 cells allografted in mouse assessed as dose required to produce T/C of 125% administered for 18 days
# [2] = system: P388; assay: Antitumor activity against mouse P388 cells allografted in mouse assessed as dose required to produce T/C of 180% administered for 18 days
smiles,measurement,setting,value
O=CCCCc1ccc(N(CCCl)CCCl)cc1,log(1/C),[1],5.96
same,log(1/C),[2],4.72
